Measurements reported in PubChem BioAssay AID624099 (ICCB-Longwood, 2012).
Assay: 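Human genes that papillomavirus E2 requires to repress the HPV18 LCR promoter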 (primary screen). Cells: human C33A cervical carcinoma cells (HPV-negative) stably expressing BPV1 E2 and an HPV18 LCR luciferase reporter. Reagent: siRNA pool against human genes, 40 nM. Duration: 72 h. Detection: 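Per-well luciferase luminescence, z-scored on each plate against the plate mean and SD with control wells left out, then averaged across three replicate plates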. Scale: mean z-score and z-score: higher = stronger reporter signal, weaker E2 silencing. Active means: 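Hit if mean z-score reaches 2 and two or more of three replicate z-scores also reach 2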.
The deposit covers about 21,000 reagents; this is a part drawn at random. In the full data, 497 (2.4%) are marked active. 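Higher z means weaker E2 silencing; only reporter increases were scored, and knock-downs that hurt cell survival may mask genuine repressor factors.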 Entries without a mark were called inactive. The numbers tell different reagents against one gene apart.

RARA (GeneID 5914) | mean z-score: -0.56; z-score, replicate A: -0.49; z-score, replicate B: -0.63; z-score, replicate C: -0.57
BEND4 (GeneID 389206) | mean z-score: 0.53; z-score, replicate A: 0.62; z-score, replicate B: 0.48; z-score, replicate C: 0.48
CFAP65 (GeneID 255101) #1 | mean z-score: -0.11; z-score, replicate A: 0.19; z-score, replicate B: -0.46; z-score, replicate C: -0.05
CFAP65 (GeneID 255101) #2 | mean z-score: -0.92; z-score, replicate A: -0.13; z-score, replicate B: -1.33; z-score, replicate C: -1.3
C11orf96 (GeneID 387763) | mean z-score: -0.19; z-score, replicate A: 0.11; z-score, replicate B: -0.4; z-score, replicate C: -0.28
FCRL5 (GeneID 83416) | mean z-score: 0.31; z-score, replicate A: 0.33; z-score, replicate B: 0.19; z-score, replicate C: 0.42
DIO2 (GeneID 1734) | mean z-score: -1.03; z-score, replicate A: -1.28; z-score, replicate B: -0.63; z-score, replicate C: -1.18
TCEA2 (GeneID 6919) | mean z-score: -1.24; z-score, replicate A: -1.43; z-score, replicate B: -1.36; z-score, replicate C: -0.93
PRKAR2B (GeneID 5577) | mean z-score: -0.99; z-score, replicate A: -1; z-score, replicate B: -1.03; z-score, replicate C: -0.95
SLC13A4 (GeneID 26266) | mean z-score: 0.71; z-score, replicate A: 0.77; z-score, replicate B: 0.88; z-score, replicate C: 0.48
RHOXF1 (GeneID 158800) | mean z-score: -0.97; z-score, replicate A: -0.74; z-score, replicate B: -0.86; z-score, replicate C: -1.3

Copied from the list:
Entry of C11orf96 (GeneID 387763) in “mean z-score”: -0.19
CFAP65 (GeneID 255101) #1, z-score, replicate A = 0.19
Under “z-score, replicate C”, RARA (GeneID 5914) has -0.57

Additional reagents follow:
PLET1 (GeneID 349633) | mean z-score: 1.29; z-score, replicate A: 1.34; z-score, replicate B: 1.67; z-score, replicate C: 0.85
FAM174B (GeneID 400451) | mean z-score: 0.4; z-score, replicate A: 0.44; z-score, replicate B: 0.25; z-score, replicate C: 0.52
PCSK9 (GeneID 255738) | mean z-score: 0.89; z-score, replicate A: 0.88; z-score, replicate B: 0.89; z-score, replicate C: 0.89
ETV3 (GeneID 2117) | mean z-score: 1.26; z-score, replicate A: 1.42; z-score, replicate B: 1.19; z-score, replicate C: 1.18
DAGLB (GeneID 221955) | mean z-score: 0.04; z-score, replicate A: -0.11; z-score, replicate B: -0.01; z-score, replicate C: 0.23
EMP1 (GeneID 2012) | mean z-score: 0.41; z-score, replicate A: 0.5; z-score, replicate B: 0.61; z-score, replicate C: 0.12
SPINT4 (GeneID 391253) | mean z-score: -1.01; z-score, replicate A: -1.28; z-score, replicate B: -0.9; z-score, replicate C: -0.86
USP22 (GeneID 23326) | mean z-score: -0.53; z-score, replicate A: -0.52; z-score, replicate B: -0.53; z-score, replicate C: -0.53
ART5 (GeneID 116969) | mean z-score: -0.29; z-score, replicate A: -0.11; z-score, replicate B: -0.4; z-score, replicate C: -0.36
HIPK2 (GeneID 28996) | mean z-score: 0.77; z-score, replicate A: 0.99; z-score, replicate B: 0.65; z-score, replicate C: 0.67
